{"source": "paper PMC4613828", "about": "(PLoS Pathogens, 2015)", "assay_in_all_cases": "microbe, parasite or virus in culture", "type_in_all_cases": "cell-based", "details_in_all_cases": "Enterovirus C, BGM", "key": {"[1]": {"test_system": "PV1 (poliovirus type 1 strain Sabin)"}, "[2]": {"test_system": "PV2 (poliovirus type 2 strain Sabin)"}, "[3]": {"test_system": "PV3 (poliovirus type 3 strain Sabin)"}}}
{"smiles": "CCON=Cc1ccc(OCCC(C)CCN2CCN(c3ccnc(N)c3)C2=O)cc1", "note": "(stereo not drawn) [NLD]", "values": [{"measurement": "EC50", "setting": "[1]", "value": "900 ± 400", "unit": "nM"}, {"measurement": "EC50", "setting": "[2]", "value": 40, "unit": "nM"}, {"measurement": "EC50", "setting": "[3]", "value": "95 ± 29", "unit": "nM"}]}
